Source: PubChem BioAssay AID624099 (ICCB-Longwood, 2012)

Purpose: 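Host factors E2 relies on to silence an HPV18 LCR reporter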 (primary screen)
Cell system: human C33A cervical carcinoma cells (HPV-negative) stably expressing BPV1 E2 and an HPV18 LCR luciferase reporter
Reagents: siRNA pool against human genes, 40 nM
Time to read-out: 72 h
Measured: 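HPV18 LCR reporter light per well, converted to plate-wise z-scores that exclude control wells, and averaged over triplicate plates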
Scale: mean z-score and z-score: higher = stronger reporter signal, weaker E2 silencing
Rule for the call: 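Mean z ≥ 2 together with z ≥ 2 in two or more of the three replicates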
This is a random part of about 21,000 reagents. 497 of them (2.4%) were called active. 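Higher z means weaker E2 silencing; only reporter increases were scored, and knock-downs that hurt cell survival may mask genuine repressor factors.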 A number with no mark means an inactive call.

For LZIC (leucine zipper and CTNNBIP1 domain containing), how do the results read?
mean z-score: 0.86; z-score, replicate A: 0.91; z-score, replicate B: 1.06; z-score, replicate C: 0.6

What did the screen give for C1orf162 (chromosome 1 open reading frame 162)?
mean z-score: 0.04; z-score, replicate A: 0.25; z-score, replicate B: -0.02; z-score, replicate C: -0.12

What did the screen give for PAX5 (paired box 5)?
mean z-score: -0.5; z-score, replicate A: -0.81; z-score, replicate B: -0.35; z-score, replicate C: -0.34

With LINC01721 (long independently transcribed non-coding RNA 1721), how do the results read?
mean z-score: -0.36; z-score, replicate A: -0.55; z-score, replicate B: -0.33; z-score, replicate C: -0.21

With USP12 (ubiquitin specific peptidase 12), how do the results read?
mean z-score: -0.22; z-score, replicate A: -0.58; z-score, replicate B: 0.11; z-score, replicate C: -0.19

With KDM8 (lysine demethylase 8 (putative)), what was measured?
mean z-score: 0.16; z-score, replicate A: 0.49; z-score, replicate B: -0.06; z-score, replicate C: 0.04

For CC2D1A (coiled-coil and C2 domain containing 1A), what was measured?
mean z-score: 0.94; z-score, replicate A: 0.65; z-score, replicate B: 1.03; z-score, replicate C: 1.13

For TMEM171 (transmembrane protein 171), what was measured?
mean z-score: 0.6; z-score, replicate A: 0.9; z-score, replicate B: 0.25; z-score, replicate C: 0.66

What did the screen give for PCDHGB6 (protocadherin gamma subfamily B, 6)?
mean z-score: -0.77; z-score, replicate A: -1.1; z-score, replicate B: -0.93; z-score, replicate C: -0.28

With VHL (von Hippel-Lindau tumor suppressor), what was measured?
mean z-score: 0.09; z-score, replicate A: -0.08; z-score, replicate B: 0.09; z-score, replicate C: 0.26

What is on record for PCM1 (pericentriolar material 1)?
mean z-score: -1.48; z-score, replicate A: -1.48; z-score, replicate B: -1.55; z-score, replicate C: -1.41

For ADARB1 (adenosine deaminase RNA specific B1), what was measured?
mean z-score: 0.89; z-score, replicate A: 0.6; z-score, replicate B: 1.29; z-score, replicate C: 0.8

What did the screen give for HRAS (HRas proto-oncogene, GTPase)?
mean z-score: -0.15; z-score, replicate A: -0.03; z-score, replicate B: -0.22; z-score, replicate C: -0.21

With PLA2G4F (phospholipase A2 group IVF), how do the results read?
mean z-score: -0.28; z-score, replicate A: -0.19; z-score, replicate B: -0.17; z-score, replicate C: -0.48

2 entries already listed, sorted by “z-score, replicate A”, low to high.
USP12 (ubiquitin specific peptidase 12) → mean z-score = -0.22; z-score, replicate A = -0.58; z-score, replicate B = 0.11; z-score, replicate C = -0.19
KDM8 (lysine demethylase 8 (putative)) → mean z-score = 0.16; z-score, replicate A = 0.49; z-score, replicate B = -0.06; z-score, replicate C = 0.04
